# Test results published in patent publication US20120207760A1, “Compositions and Methods for the Therapy and Diagnosis of Influenza” (THERACLONE SCIENCES, published 2012).
# B1: TCN-530 (5248_H10a) (antibody, V domains shown)
# VH: QVQLVQSGAEVRKPGSSVKVSCKASGGPFMSYAIGWVRQAPGQGLEWMGGINPVFGRPHYAQKFQGRVTIATDDSTKTSYMELSSLTSEDTGMYYCASRYSRSSPGTFESWGQGTLVTVSS
# VL: EIVMTQFPATLSVSPGERVTLSCRASQSVSNNLAWYQQKPGQPPRLLIYDASTRATGVPAKFSGTGSGTEFTLSISSLQSEDFAVYYCQQYHNWPPSYSFGLGTKLEIK
# B2: TCN-532 (5262_H18) (antibody, V domains shown)
# VH: QVQLQESGPGLVKPSETLSLTCTVSGGSVSSETYYWSWIRQPPGKGLEWIGYIYYIGNTDYRPSLKSRVTISLDTSKNQFSLKLSSVTAADTAVYYCARGAYYDSSGYPAFYIWGQGTMVTVSS
# VL: QSVLTQPPSVSGAPGQRVTISCTGSSSNIGSDYDVHWYKQLPGTAPKLLIFGNSNRPSGVPDRFSGSKSGTSASLAITGLQAEDEADYYCQSYDSSLSGFHVFGSGTKVTVL
# B3: TCN-534 (5249_B02) (antibody, V domains shown)
# VH: QVQLVQSGAEVKKPGSSVKVSCRESGGTFNGYTITWVRQAPGQGLEWMGGIIPMMGTVNYAQKLQGRVTITTDYFTKTAYMDLNNLRSEDTAMYYCVKIRYTGQQLLWGQGTLVTVSS
# VL: DIQMTQSPSTLSASIGDRVTITCRASQSIASWLAWYQQKPGKAPKLLIYEAVNLESGVPSRFSGSGSGTDFTLTISSLQPDDFATYFCQHYGTISQTFGGGTKVEIK
# B4: TCN-536 (5095_N01) (antibody, V domains shown)
# VH: QVQLQQWGAGLLKPSETLSLTCAVYGGSFSVSGYYWSWIRQPPGRGLEWIGEISHGGSTNYNPSLKSRVTISVDTTKNQFSLRLSSVTAADTAVYYCARGTDPDTEVYCRVGNCAAFDYWGQGSLVTVSS
# VL: EIILAQSPGTLSLSPGERATLSCRASQFVSTRSLAWYQQRPGQAPRLLIYGASSRATGIPDRFSGSGSGTDFTLTISRLEPEDFAVYYCQHYGYSPRYAFGQGSKVEIK
# B5: TCN-538 (3206_O17) (antibody, V domains shown)
# VH: QITLKESGPTLVKPTQTLTLTCVFSGFSLSITGVRVGWIRQPPGKALEWLALISWDDEKHYSPSLQSRLTITKDTSKNQVVLTMTNLDPVDTATYYCARSTDRGHVLRYFGWMLPGDAFDVWGQGTMVTVSS
# VL: DIVMTQSPDFLPVSLGERATINCKSSQRVLYSSNNKNYLAWYQLKPGQPPKLIIYWASTRESGVPDRFSGSGSGTEFTLTISSLQAEDVAVYYCQQYYSRPYTFGQGTKLEIK
# B6: TCN-539 (5056_A08) (antibody, V domains shown)
# VH: QVQLVESGGGVVQPGRSLRLSCAASEITFITYAMHWVRQAPGKGLEWVALISDDGSNKFYADSVKGRFTISRDNSKNTLYLQMNSLRAEDTAAYYCAREGVYFDSGTYRGYFDYWGQETLVTVSS
# VL: EIVLTQSPATLSLSPGERATLSCRASQSVSSYLAWYQQKPGQAPRLLIYDASNRATGIPARFSGSGSGTDFTLTISSLEPEDFAVYYCQQRSHWPPITFGQGTRLEIK
# B7: TCN-543 (5081_G23) (antibody, V domains shown)
# VH: QVHLVQSGAEVRKPGDSVKVSCKTSGYTFSTYPVAWVRQVPGQGLEWMGWISTYNGNTNFAQNFQGRVTLTTDTTTNTAYMEVRSLKFDDTAVYYCARVEGSYRDFWNNQNRFDPWGQGTLVTVSS
# VL: SYVLTQPPSVSVAPGQTARISCGGSNIGGKSVHWYQQKPGQAPVLVVYDDSGRPSGIPERFSGSNSGDTATLTISRVEAGDEADYFCQVWDNFGGVFGTGTKVTVL
# B8: TCN-554 (5277_M05) (antibody, V domains shown)
# VH: QVQLVQSGADLKKPGASVKVSCKASGYTFTDYYIHWVRQAPGQGLEWMGWINPESGDTKYAQKFQGRVTMTRDTSITTAYMELGRLRSDDTAVYYCARDVSTTWSWFAPWGQGTLVTVSS
# VL: DIVMTQSPDSLAVSLGERATINCRSSQSIFHNSNNENYLAWYQQKPGQPPKLLIYWASTRESGVPDRFSGSGSGTDFTLTISSLQAEDVAVYFCQQYYNAPLTFGGGTKVEIK
# B9: TCN-521 (3280_D18) (antibody, V domains shown)
# VH: EVQLVQSGGGLVQPGGSLRLACVVSGFTVTSNYITWVRQAPGKGLEWVSVIYSHGRAYYSASVNGRFTISRHTSKNTVYLEMNSLRPEDTAVYYCAGGGLVGGYDEYFFDYWGQGTLATVSS
# VL: ETVLTQSPGTLSLTPGERATLSCRVGQSVSGSHLAWYQQKPGQAPRLLIYGASSRATGIPDRFGGSVSGTDFTLTISRLEPEDSAVYYCQQYGDSRYTFGQGTKLEIK
# B10: TCN-523 (5248_A17) (antibody, V domains shown)
# VH: QVQLVQSGAEVKKPGSSVKVSCKASGGSFSNYAFSWVRQAPGQGLEWMGGTIPLLGTTNYAQKFQGRVTISADQFTSTAYMELGSLRSEDTAVYYCTRRKMTTAFDSWGQGTLVTVSS
# VL: QPVLTQPPSASASLGASVTLTCTLSSAYSNYKVDWYQQRPGKGPRFVMRVGTGGIVGSKGDGIPDRFSVLGSGLNRYLTIKNIQEEDESDYHCGADHGSGSNFVSPYVFGGGTKLTVL
# B11: TCN-538 (3206_O17) (antibody, V domains shown)
# VH: B5 VH
# VL: B5 VL
# B12: TCN-542 (5079_A16) (antibody, V domains shown)
# VH: QVQLQESGPGLVKPSQTLSLTCTVSGGSISSGNYYWNWVRQHPGKGLEWIGYIYYRGSTFYNPSLKSRVTISIDTSKNQFSLRLSSVTAADTAVYYCAKDTRSSLDNYQYGMDVWGQGTTVTVSS
# VL: QTVVTQEPSLTVSPGGTVTLTCASSTGAVTSSYFPNWFQQKPGQAPRPLIYSTTIRHSWTPARFSGSLLGGKAALTLSGVQPEDEADYYCLLYSGGDPVAFGGGTKLTVL
# B13: TCN-553 (5261_C18) (antibody, V domains shown)
# VH: QVQVVQSGTEVKKPGSSVKVSCQTSGGRFMSYAITWVRQAPGQGLEWMGGIVPVFGTANYAQKFQGRVTITTDDSTRTAYMELSSLRSEDTAVYYCGFRYGSGYGFDSWGQGTLVTVSS
# VL: EIVLTQSPGTLSLSPGERATLSCRASQSVSSSYLAWYQKKPGQAPRLLIYGASTRATGIPDRFTGSGSGTDFTLSISRLEPEDFAVYYCQHFGTSVFTFGGGTKVEIK
# B14: TCN-555 (5246_L16) (antibody, V domains shown)
# VH: QVQLVQSGAEVKRPGSSVKVSCTASGGIFRKNAISWVRQAPGQGLEWMGGIIAVFNTANYAQKFQNRVKITADESGNTAYMELSSLTSDDTAVYYCASHPKYFYGSGSYPDFWGQGTLVTVSS
# VL: QSALTQPRSVSGSPGQSITISCTGGSSDIGASNSVSWYQQHPGKAPKLVIFDVTERPSGVPHRFSGSKSGNTASLTVSGLQPDDEADYFCCAYGGKYLVVFGGGTKVTVL
# Biological target: recombinant soluble homotrimeric HA of A/Wisconsin/67/05 (H3N2) (Influenza A virus A/Wisconsin/67/05 …)
# Assay: not given
row,Binder,Trimeric HA Binding: RLU
1,B1,36800 RLU
2,B2,18000 RLU
3,B3,7980 RLU
4,B4,35000 RLU
5,B5,6900 RLU
6,B6,715 RLU
7,B7,1360 RLU
8,B8,46500 RLU

# Biological target: recombinant soluble homotrimeric HA of A/Netherlands/219/03 (H7N7) (Influenza A virus A/Netherlands/219/03 …)
# Assay: not given
row,Binder,Trimeric HA Binding: RLU
1,B2,327 RLU
2,B7,661 RLU
3,B8,610 RLU

# Biological target: recombinant soluble homotrimeric HA of A/California/4/09 (H1N1) (Influenza A virus A/California/4/09 …)
# Assay: microarray, BCC supernatant IgG, trimeric HA
row,Binder,Trimeric HA Binding: RLU
1,B1,46600 RLU
2,B3,30100 RLU
3,B4,151 RLU
4,B5,13800 RLU
5,B7,13100 RLU

# Biological target: recombinant soluble homotrimeric HA of A/Solomon Islands/3/06 (H1N1) (Influenza A virus A/Solomon …)
# Assay: microarray, BCC supernatant IgG, trimeric HA
row,Binder,Trimeric HA Binding: RLU
1,B9,39600 RLU
2,B10,37900 RLU
3,B1,32800 RLU
4,B2,327 RLU
5,B3,44200 RLU
6,B5,33200 RLU
7,B6,239 RLU
8,B7,511 RLU
9,B8,115 RLU

# Biological target: recombinant soluble homotrimeric HA of A/swine/Ontario/01911-2/99 (H4N6) (Influenza A virus …)
# Assay: microarray, BCC supernatant IgG, trimeric HA
row,Binder,Trimeric HA Binding: RLU
1,B2,119 RLU
2,B4,79 RLU
3,B6,1580 RLU
4,B8,78 RLU

# Biological target: recombinant soluble homotrimeric HA of A/Egypt/3300-NAMRU3/08 (H5N1) (Influenza A virus …)
# Assay: microarray, BCC supernatant IgG, trimeric HA
row,Binder,Trimeric HA Binding: RLU
1,B1,30400 RLU
2,B3,41400 RLU
3,B5,23600 RLU
4,B6,11400 RLU

# Biological target: recombinant soluble homotrimeric HA of A/chicken/Vietnam/NCVD-016/08 (H5N1) (Influenza A virus …)
# Assay: microarray, BCC supernatant IgG, trimeric HA
row,Binder,Trimeric HA Binding: RLU
1,B1,48300 RLU
2,B2,46 RLU
3,B3,56600 RLU
4,B4,287 RLU
5,B5,37300 RLU
6,B6,100 RLU
7,B8,250 RLU

# Biological target: recombinant soluble homotrimeric HA of A/northern shoveler/California/HKWF115/07 (Influenza A virus A/northern …)
# Assay: microarray, BCC supernatant IgG, trimeric HA
row,Binder,Trimeric HA Binding: RLU
1,B1,45300 RLU
2,B2,511 RLU
3,B3,52400 RLU
4,B5,17400 RLU
5,B6,814 RLU

# Biological target: recombinant soluble homotrimeric HA of A/duck/Yangzhou/02/05 (H8N4) (Influenza A virus …)
# Assay: microarray, BCC supernatant IgG, trimeric HA
row,Binder,Trimeric HA Binding: RLU
1,B3,46500 RLU
2,B5,6120 RLU

# Biological target: recombinant soluble homotrimeric HA of A/Hong Kong/2108/03 (H9N2) (Influenza A virus A/Hong Kong/2108/03 …)
# Assay: microarray, BCC supernatant IgG, trimeric HA
row,Binder,Trimeric HA Binding: RLU
1,B9,93 RLU
2,B10,189 RLU
3,B1,486 RLU
4,B3,165 RLU
5,B5,109 RLU

# Biological target: recombinant soluble homotrimeric HA of A/Egypt/3300-NAMRU3/08 - H5N1 (Influenza A virus …)
# Assay: micro-array; captured IgG, V5-tagged trimeric HA
row,Binder,Trimeric HA Binding: RLU
1,B11,41000 RLU
2,B12,14800 RLU
3,B13,19500 RLU
4,B14,20000 RLU

# Biological target: recombinant soluble homotrimeric HA of A/chicken/Vietnam/NCVD-016/08 - H5N1 (Influenza A virus …)
# Assay: micro-array; captured IgG, V5-tagged trimeric HA
row,Binder,Trimeric HA Binding: RLU
1,B12,5460 RLU
2,B13,34700 RLU
3,B14,35200 RLU

# Biological target: recombinant soluble homotrimeric HA of A/Hong Kong/156/97 - H5N1 (Influenza A virus A/Hong Kong/156/97 …)
# Assay: micro-array; captured IgG, V5-tagged trimeric HA
row,Binder,Trimeric HA Binding: RLU
1,B12,786 RLU
2,B13,36300 RLU
3,B14,36300 RLU

# Biological target: recombinant soluble homotrimeric HA of A/northern shoveler/California/HKWF115/2007 - H6N1 (Influenza A virus A/northern …)
# Assay: micro-array; captured IgG, V5-tagged trimeric HA
row,Binder,Trimeric HA Binding: RLU
1,B11,8900 RLU
2,B12,2370 RLU
3,B13,32500 RLU
4,B14,28700 RLU

# Biological target: recombinant soluble homotrimeric HA of A/duck/Yangzhou/02/2005 - H8N4 (Influenza A virus …)
# Assay: micro-array; captured IgG, V5-tagged trimeric HA
row,Binder,Trimeric HA Binding: RLU
1,B12,11600 RLU
2,B13,12500 RLU
